Consider five molecules from patent US9907860B2, “Conjugated molecules comprising a peptide derived from the CD4 receptor coupled to an anionic polypeptide for the treatment of AIDS” (INSTITUT PASTEUR, priority 2014, dated 2018).

Common to all, as to format: cell-based
Data set [1] in a line: Cytotoxic activity, WST-1 cell proliferation assay. Conditions: human; WST-1, 48 h. The protocol: Cytotoxicity was determined using the water-soluble tetrazolium-1 (WST-1) cell proliferation assay, which is based on the cleavage of the tetrazolium salt WST-1 to a formazan dye by cellular dehydrogenases. Because this bioreduction is dependent on the glycolytic production of NAD(P)H in viable cells, the amount of formazan dye formed is correlated directly to the number of viable cells in a culture. Quantification is performed by measuring absorbance at 450 nm in a multiwell plate reader. An amount of 10^4 cells was plated per well in a 96-well plate, and a serial dilution of compound was added. Forty eight hours later, cell proliferation reagent was added and cell viability was measured compared to untreated control cultures. Cell viability was plotted against the compound concentration, and nonlinear regression analysis was performed to evaluate the 50% cytotoxic concentration (CC50).
The miniCD4 conjugates were then evaluated for their cytotoxic activity according to the protocol described above. All cytotoxic results are reported in the table below in the form of CC50 values (nM).

In data set [2] the test system is HIV-1 NLAD8 (R5) in primary CD4+ T cells. Kind of data set: Viral cell-to-cell transmission assay, HIV-1 NLAD8. Conditions: R5 virus HIV-1 NLAD8, primary CD4+ T cells, intracellular Gag. As to the method: (§1) Primary CD4+ T cells were purified from human peripheral blood by positive selection (Miltenyi). About 98% of cells were CD4+CD3+. For activation, primary T cells were treated with phytohemagglutinin (PHA) (1 μg/ml) for 24 h and then cultured with interleukin 2 (IL-2) (50 IU/ml) for 3-5 days before use. Primary cells were infected with HIV-1 NL4-3 and NLAD8 as described in Lepelley et al. PLoS Pathog 2011, 7:e1001284 and Malbec et al. J Exp Med 2013, 210:2813-2821. Donor cells were used a few days later, when about 20% of the cells were Gag+. Target cells were labeled with FarRed (2.5 μM; Molecular Probes). Donors were preincubated 1 h with the indicated doses of compounds. Donor and target cells were then mixed at a 1:2 ratio in 96-well plates at a final concentration of 1.5×10^6/ml in 200 μl, in duplicates. After 48, 72 or 96 h, cells were stained for intracellular Gag (KC57 mAb, Coulter) and analyzed by flow cytometry. When stated, Nevirapine (NVP; 12.5 nM) or the NIH45-46 broadly neutralizing antibody (bNAb) (Malbec et al. J Exp Med 2013, 210:2813-2821) was added 1 h before coculture.
(§2) mCD4.1, mCD4.2, mCD4.3 and their PS1 conjugates, as well as Nevirapine and NIH45-46, were evaluated for their capacity to inhibit cell-cell HIV transmission. This was performed using primary cells infected with R5 (HIV1-NLAD8) and X4 (HIV1-NL4-3) viruses.

Data set [3] relates to HIV-1 NL4-3 (X4) in primary CD4+ T cells. Kind of data set: Viral cell-to-cell transmission assay, HIV-1 NL4-3. Conditions: X4 virus HIV-1 NL4-3, primary CD4+ T cells, intracellular Gag. The protocol: as §1, §2

Regarding `CC(C)C[C@@H]1NC(=O)CNC(=O)[C@H](CC(C)C)NC(=O)[C@H](CO)NC(=O)[C@H](CO)NC(=O)[C@@H]2CSSC[C@@H](C(=O)N[C@H](C(N)=O)C(C)C)NC(=O)[C@H](C)NC(=O)[C@@H]3CSSC[C@H](NC(=O)[C@H](CCCCN)NC(=O)[C@H](Cc4c[nH]cn4)NC(=O)[C@H](CC(C)C)NC(=O)[C@H](CC(N)=O)NC(=O)CCSSC[C@H](NC(=O)[C@H](CCCNC(=N)N)NC(=O)CNC(=O)[C@H](CC(C)C)NC1=O)C(=O)N[C@@H](C)C(=O)N1CCC[C@@H]1C(=O)N[C@@H]([C@@H](C)O)C(=O)N[C@@H](Cc1ccc(OCC4CCCCC4)cc1)C(=O)N3)C(=O)N[C@@H](CCC(N)=O)C(=O)N[C@@H](CC(C)C)C(=O)N[C@@H](CCCNC(=N)N)C(=O)N2` [mCD4.2], the 50% cytotoxic concentration (CC50) (commonly the concentration giving 50% cytotoxicity) at 48 h in data set [1] turned out to be 24 µM.
On the same count and under the same terms, next, `CC(C)C[C@@H]1NC(=O)CNC(=O)[C@H](CC(C)C)NC(=O)[C@H](CO)NC(=O)[C@H](CO)NC(=O)[C@@H]2CSSC[C@@H](C(=O)N[C@H](C(N)=O)C(C)C)NC(=O)[C@H](C)NC(=O)[C@@H]3CSSC[C@H](NC(=O)[C@H](CCCCN)NC(=O)[C@H](Cc4c[nH]cn4)NC(=O)[C@H](CC(C)C)NC(=O)[C@H](CC(N)=O)NC(=O)CCSSC[C@H](NC(=O)[C@H](CCCNC(=N)N)NC(=O)CNC(=O)[C@H](CC(C)C)NC1=O)C(=O)N[C@@H](C)C(=O)NCC(=O)N[C@@H](CO)C(=O)N[C@@H](Cc1ccc(-c4ccccc4)cc1)C(=O)N3)C(=O)N[C@@H](CCC(N)=O)C(=O)N[C@@H](CC(C)C)C(=O)N[C@@H](CCCNC(=N)N)C(=O)N2` [mCD4.1]: 45.5 µM; `CC(C)C[C@@H]1NC(=O)CNC(=O)[C@H](CC(C)C)NC(=O)[C@H](CO)NC(=O)[C@H](CCCCN)NC(=O)[C@@H]2CSSC[C@@H](C(=O)N[C@H](C(N)=O)C(C)C)NC(=O)[C@H](C)NC(=O)[C@@H]3CSSC[C@H](NC(=O)[C@H](Cc4ccccc4)NC(=O)[C@H](Cc4cnc[nH]4)NC(=O)[C@H](CC(C)C)NC(=O)[C@H](CC(N)=O)NC(=O)CCSSC[C@H](NC(=O)[C@H](CCCNC(=N)N)NC(=O)CNC(=O)[C@H](CC(C)C)NC1=O)C(=O)N[C@@H](C)C(=O)N1CCC[C@@H]1C(=O)N[C@@H]([C@@H](C)O)C(=O)N[C@@H](Cc1ccc(OCC4CCCCC4)cc1)C(=O)N3)C(=O)N[C@@H](CCC(N)=O)C(=O)N[C@@H](CC(C)C)C(=O)N[C@@H](CCCNC(=N)N)C(=O)N2` [M48U1]: 12.9 µM.
On to `CC(C)C[C@@H]1NC(=O)CNC(=O)[C@H](CC(C)C)NC(=O)[C@H](CO)NC(=O)[C@H](CCCNC(=N)N)NC(=O)[C@@H]2CSSC[C@@H](C(=O)N[C@H](C(N)=O)C(C)C)NC(=O)[C@H](C)NC(=O)[C@@H]3CSSC[C@H](NC(=O)[C@H](CCCCNC(=O)CCOCCOCCNC(=O)CCN4C(=O)CC(SCCC(=O)NCCCC(=O)N[C@@H](CO)C(=O)N[C@@H](Cc5ccc(OS(=O)(=O)O)cc5)C(=O)N[C@@H](CC(=O)O)C(=O)N[C@@H](Cc5ccc(OS(=O)(=O)O)cc5)C(=O)N[C@@H](CO)C(=O)N[C@@H](Cc5ccc(OS(=O)(=O)O)cc5)C(=O)N[C@@H](CC(=O)O)C(=O)N[C@@H](Cc5ccc(OS(=O)(=O)O)cc5)C(=O)N[C@@H](CO)C(=O)N[C@@H](Cc5ccc(OS(=O)(=O)O)cc5)C(=O)N[C@@H](CC(=O)O)C(=O)N[C@@H](Cc5ccc(OS(=O)(=O)O)cc5)C(=O)N[C@@H](CO)C(=O)O)C4=O)NC(=O)[C@H](Cc4c[nH]cn4)NC(=O)[C@H](CC(C)C)NC(=O)[C@H](CC(N)=O)NC(=O)CCSSC[C@H](NC(=O)[C@H](CCCNC(=N)N)NC(=O)CNC(=O)[C@H](CC(C)C)NC1=O)C(=O)N[C@@H](C)C(=O)N1CCC[C@@H]1C(=O)N[C@@H]([C@@H](C)O)C(=O)N[C@@H](Cc1ccc(OCC4CCCCC4)cc1)C(=O)N3)C(=O)N[C@@H](CCC(N)=O)C(=O)N[C@@H](CC(C)C)C(=O)N[C@@H](CCCNC(=N)N)C(=O)N2` (stereo partly shown) [mCD4.3-PS1], for which the CC50 at 48 h in data set [1] was more than 50 µM. In addition, the “block of cell-cell virus transmission” value in data set [2] and in data set [3] was “able to block cell-cell virus transmission” each time.
As to `CC(C)C[C@@H]1NC(=O)CNC(=O)[C@H](CC(C)C)NC(=O)[C@H](CO)NC(=O)[C@H](CCCNC(=N)N)NC(=O)[C@@H]2CSSC[C@@H](C(=O)N[C@H](C(N)=O)C(C)C)NC(=O)[C@H](C)NC(=O)[C@@H]3CSSC[C@H](NC(=O)[C@H](CCCCN)NC(=O)[C@H](Cc4c[nH]cn4)NC(=O)[C@H](CC(C)C)NC(=O)[C@H](CC(N)=O)NC(=O)CCSSC[C@H](NC(=O)[C@H](CCCNC(=N)N)NC(=O)CNC(=O)[C@H](CC(C)C)NC1=O)C(=O)N[C@@H](C)C(=O)N1CCC[C@@H]1C(=O)N[C@@H]([C@@H](C)O)C(=O)N[C@@H](Cc1ccc(OCC4CCCCC4)cc1)C(=O)N3)C(=O)N[C@@H](CCC(N)=O)C(=O)N[C@@H](CC(C)C)C(=O)N[C@@H](CCCNC(=N)N)C(=O)N2` [mCD4.3], in data set [1], the midpoint of cytotoxicity, the CC50 at 48 h, lay at 15.5 µM.
